Experimental data taken from US20090232831A1, “METHODS AND COMPOSITIONS FOR THE TREATMENT OR PREVENTION OF HUMAN IMMUNODEFICIENCY VIRUS INFECTION” (priority 2008, published 2009).

System: 2G12 complex
Test: KD,surf of 2G12 complex on glycan-printed normal-NHS-density slide
Type: binding
Experimental: To further test its multivalent efficacy, 17 was immobilized onto a normal-NHS-density slide (FIG. 3d) at varying printing concentrations.
Second generation Man9 dendron 17 on normal NHS density slide: Similar procedure as for normal density Man4 slide was used. Derivative of 17 with a linker connecting free amine was used for printing. The printing concentrations are 100, 80, 60, 40, 20, 10, 8, 6, 4, 2, 1, 0.8, 0.6, 0.4, 0.2, 0.1, 0.08, 0.06, 0.04, and 0.02 μM. The KD,surf of 2G12 complex was obtained (see Table 4) as previously described.
Determination of KD,surf of glycodendron 17. The procedure is the same as that disclosed in Liang et al., “Quantitative analysis of carbohydrate-protein interactions using glycan microarrays: determination of surface and solution dissociation constants.” J Am Chem Soc 129:11177-11184 (2007), which is hereby incorporated by reference as if fully disclosed herein.

[1] = lowest 2G12 concentration with signal to noise ratio greater than 10

Man4 was tested. Which “detection limit of slide for the 2G12 complex” value [1] did it give?
Its value is 3 g/mL.

And the “limit of detection of slide for 2G12” value [1]?
Its value is 3 µg/mL.

And the “critical printing concentration for 2G12 complex binding” value (same surface)?
Its value is 40 M.
